Holding throughout (assay type): biochemical
Assay [1] deals with recombinant P. falciparum cGMP-dependent protein kinase (PfPKG) (Plasmodium falciparum, UniProt Q8I719). In words: PfPKG in vitro kinase activity assay (luminescence). The note with it: read-out: IC50 (SD) for PfPKG; 2 µM ATP, 20 µM cGMP, 2 h at 30°C. How it is done:
Compound efficacy against recombinant P. falciparum cGMP-dependent protein kinase (PfPKG) was determined using a novel nonradioactive and high-throughput assay. This assay evaluates protein kinase activity by measuring changes in […] ATP concentration via luminescence after PfPKG enzyme phosphorylation of a peptide substrate, PKCtide ([…]) (SignalChem, Richmond, BC, Canada). The in vitro kinase assay was set up with 26 µM PKCtide, 30 nM PfPKG, and 20 µM cGMP in a buffered solution containing 20 mM β-glycerol phosphate, 20 mM MgCl2, 25 mM HEPES (pH 7.5) (KOH), 0.1% bovine serum albumin (BSA), and 2 mM DTT ([37]). The reaction was initiated with addition of 2 µM ATP. The reaction mixture was incubated at 30°C and 90-rpm agitation for 2 h. Reaction wells with no PfPKG, no peptide substrate, and no cGMP were included in each assay plate as internal negative controls.

Chains of the proteins cited; added tags and fusions are not shown. Lines headed by an entry give the natural chain unless they say otherwise; changes in a name come on top.
UniProt Q8I719, whole entry: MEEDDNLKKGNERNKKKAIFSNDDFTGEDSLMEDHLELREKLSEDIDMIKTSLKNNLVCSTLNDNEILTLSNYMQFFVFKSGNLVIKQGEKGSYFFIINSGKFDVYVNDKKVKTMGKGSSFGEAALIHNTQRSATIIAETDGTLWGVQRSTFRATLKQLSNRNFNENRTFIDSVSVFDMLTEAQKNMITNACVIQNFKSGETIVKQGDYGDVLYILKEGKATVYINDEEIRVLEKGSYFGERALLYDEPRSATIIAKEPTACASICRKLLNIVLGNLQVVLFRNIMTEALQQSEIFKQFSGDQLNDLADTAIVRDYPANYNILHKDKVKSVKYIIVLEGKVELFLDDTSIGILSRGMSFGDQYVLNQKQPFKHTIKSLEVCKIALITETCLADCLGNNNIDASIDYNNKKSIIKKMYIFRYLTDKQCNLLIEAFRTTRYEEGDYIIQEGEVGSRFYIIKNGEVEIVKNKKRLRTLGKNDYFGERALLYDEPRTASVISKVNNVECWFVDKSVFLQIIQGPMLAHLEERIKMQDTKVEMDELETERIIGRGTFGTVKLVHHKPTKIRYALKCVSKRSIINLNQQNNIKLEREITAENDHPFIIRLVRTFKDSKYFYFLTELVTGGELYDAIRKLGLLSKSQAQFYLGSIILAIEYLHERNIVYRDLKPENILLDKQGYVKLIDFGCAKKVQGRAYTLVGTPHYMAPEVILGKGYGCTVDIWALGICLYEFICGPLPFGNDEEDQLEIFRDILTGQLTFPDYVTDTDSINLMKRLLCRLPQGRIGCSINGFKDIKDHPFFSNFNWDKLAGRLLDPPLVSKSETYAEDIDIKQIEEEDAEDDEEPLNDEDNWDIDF
UniProt P62344, whole entry: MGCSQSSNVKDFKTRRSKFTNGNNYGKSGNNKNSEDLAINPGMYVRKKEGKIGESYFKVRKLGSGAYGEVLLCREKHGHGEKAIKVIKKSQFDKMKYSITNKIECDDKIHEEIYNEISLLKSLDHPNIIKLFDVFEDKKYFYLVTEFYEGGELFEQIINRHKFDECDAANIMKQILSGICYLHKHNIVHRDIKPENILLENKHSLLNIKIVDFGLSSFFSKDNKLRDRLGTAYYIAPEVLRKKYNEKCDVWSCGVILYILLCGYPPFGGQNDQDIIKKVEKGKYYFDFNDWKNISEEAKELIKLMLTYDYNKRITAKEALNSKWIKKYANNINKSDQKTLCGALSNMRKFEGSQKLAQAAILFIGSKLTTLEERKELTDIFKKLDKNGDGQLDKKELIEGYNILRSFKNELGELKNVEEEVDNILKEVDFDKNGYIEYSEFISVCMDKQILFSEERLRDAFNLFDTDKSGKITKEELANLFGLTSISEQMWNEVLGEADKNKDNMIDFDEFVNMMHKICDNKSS
UniProt P62344, whole entry T145M: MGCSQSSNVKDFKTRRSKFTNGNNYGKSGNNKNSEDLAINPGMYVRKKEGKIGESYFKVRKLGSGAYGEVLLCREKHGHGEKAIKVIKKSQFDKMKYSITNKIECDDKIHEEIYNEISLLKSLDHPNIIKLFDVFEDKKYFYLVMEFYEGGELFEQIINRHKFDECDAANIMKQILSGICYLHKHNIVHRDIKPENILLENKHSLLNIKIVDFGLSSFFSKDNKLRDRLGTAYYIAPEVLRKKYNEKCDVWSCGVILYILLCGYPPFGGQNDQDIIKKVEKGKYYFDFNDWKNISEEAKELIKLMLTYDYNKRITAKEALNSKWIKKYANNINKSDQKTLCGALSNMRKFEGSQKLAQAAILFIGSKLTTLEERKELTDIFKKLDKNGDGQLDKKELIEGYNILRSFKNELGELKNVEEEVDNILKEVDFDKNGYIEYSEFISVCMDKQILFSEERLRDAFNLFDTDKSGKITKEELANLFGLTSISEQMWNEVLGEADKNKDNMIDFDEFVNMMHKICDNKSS

Assay [2] concerns the target recombinant PfCDPK1 T145M (Plasmodium falciparum, UniProt P62344, T145M). In words: BKI library screening, in vitro kinase assay (KinaseGlo). The following applies: read-out: PfCDPK1Met IC50; methionine gatekeeper mutant T145M; 10 µM ATP, 90 min at 30°C. A general note: Kinase-Glo measures the ATP left after a reaction by luminescence.
For the next assay, the target named is recombinant PfCDPK1 WT (Plasmodium falciparum, UniProt P62344). The assay is described as above. The following applies: read-out: PfCDPK1 WT IC50; 10 µM ATP, 90 min at 30°C; two independent experiments in triplicate.

Some results are limits rather than exact numbers.

What is called IC50 is the concentration that gives 50% inhibition. Turning to `CCOc1ccc2cc(-c3nn(CC4CCNCC4)c4ncnc(N)c34)ccc2n1`, the IC50 in assay [1] is 1380 nM; in assay [2], over 2000 nM; at recombinant PfCDPK1 WT, 468 nM.
`CC(C)(C)n1nc(-c2ccc3ccccc3c2)c2c(N)ncnc21`: the IC50 in assay [2] is over 2000 nM; at recombinant PfCDPK1 WT it was 337 nM.
For `CCOc1ccc2cc(-c3nn(CC4CCNCC4)c4ncnc(N)c34)ccc2c1`, the IC50 in assay [1] was 374 nM; in assay [2], over 2000 nM; at recombinant PfCDPK1 WT, 148 nM.

For the origin of these results see article PMC5142624, “Reduced Activity of Mutant Calcium-Dependent Protein Kinase 1 Is Compensated in Plasmodium falciparum through the Action of Protein Kinase G” (mBio, 2016).
